Results of unrelated studies side by side (data: NIAID ChemDB).

Shared fields: tests on isolated targets; agent: HIV-1; protein: Integrase; read-out: inhibition

Inhibition is in % at the dose shown (toxicity tests: loss of growth or viability). Neighbouring rows are from separate reports. An empty or dashed field is not shown.

compound,dose,read by,strain or isolate,value
CCn1cc(C(=O)O)c(=O)c2cc(F)c(N3CCNC(C)C3)c(F)c21,10 µM,AlphaScreen,,2.23%
NS(=O)(=O)c1ccc(Nc2c3ccccc3nc3c(C(=O)NC(CO)(CO)CO)cccc23)cc1,100 µg/mL,3′ processing,RF,52.9%
O=C(O)c1c[nH]c2ccc(S(=O)(=O)NCC34CC5CC(CC(C5)C3)C4)cc2c1=O,1000 µM,strand transfer,,99.93%
COc1ccc(C[C@H]2CCC(=O)[C@@H]2Cc2ccc(O)c(O)c2)cc1OC,100 µM,strand transfer,,38%
CN/N=C(/c1nc2ccc([N+](=O)[O-])cc2[nH]c1=O)C(O)c1ccc(C(O)/C(=N/NC)c2nc3ccc([N+](=O)[O-])cc3[nH]c2=O)cc1,100 µg/mL,3′ processing,RF,35.5%
O=C(O)c1c[nH]c2ccc(S(=O)(=O)N(CCCl)CCCl)cc2c1=O,1000 µM,strand transfer,,99.97%
C=C(C)[C@H]1CCC[C@]2(CO)CC[C@@]3(C)[C@]4(C)CC[C@H]5C(C)(C)[C@@H](O)CC[C@]5(C)[C@H]4CC[C@]3(C)[C@@H]12,25 µg/mL,ELISA / strand transfer,,16.8%
COC(=O)/C=C/c1ccccc1,100 µM,3′ processing,,0%
Cc1cc(C)cc(Cn2cc(/C(O)=C/C(=O)C(=O)O)c3c(O)cccc32)c1,100 µM,AlphaScreen,,94%
CCn1cc(C(=O)O)c(=O)c2cc(F)c(N3CCNCC3)nc21,10 µM,AlphaScreen,,0%
O=c1oc2c(O)c(O)cc3c(=O)oc4c(O)c(O)cc1c4c23,25 µg/mL,ELISA / strand transfer,,11.3%
CC(C)n1c(/C=C/[C@@H](O)C[C@@H](O)CC(=O)O)c(-c2ccc(F)cc2)c2ccccc21,10 µM,AlphaScreen,,15.45%
O=c1oc2cc(O)ccc2c2ccc(O)cc12,25 µg/mL,ELISA / strand transfer,,9.9%
O=C(O)c1cc(-c2ccc(F)cc2F)ccc1O,10 µM,AlphaScreen,,42.76%
NC(CCSSCCC(N)P(=O)(O)O)P(=O)(O)O,100 µg/mL,strand transfer,RF,49.9%
CC(C(=O)O)c1cccc(Oc2ccccc2)c1,10 µM,AlphaScreen,,2.61%
O/N=C1\C(=C\c2ccc3c(c2)OCCO3)CCCC1C(NO)c1ccc2c(c1)OCCO2,100 µg/mL,strand transfer,RF,50.3%
CCCCc1[nH]cc(CC(Cc2cccs2)C(=O)O)[n+]1Cc1ccc(C(=O)O)cc1,10 µM,AlphaScreen,,43.67%
O=C(O)c1c[nH]c2ccc(S(=O)(=O)NC34CC5CC(CC(C5)C3)C4)cc2c1=O,1000 µM,strand transfer,,90.93%
CC[C@H](C)/C=C(C)/C=C/C(=O)Cc1cc(O)c(C)c(O)c1C=O,100 µg/mL,,,0%
CC1CNc2c(cccc2S(=O)(=O)N[C@@H](CCCN=C(N)N)C(=O)N2CC[C@@H](C)C[C@@H]2C(=O)O)C1,10 µM,AlphaScreen,,7.29%
O/N=C1\C(=C\c2ccc3c(c2)OCO3)CCCC1C(NO)c1ccc2c(c1)OCO2,100 µg/mL,3′ processing,RF,37.3%
Cc1cccc(N2CCN(S(=O)(=O)c3ccc4[nH]cc(C(=O)O)c(=O)c4c3)CC2)c1,1000 µM,strand transfer,,66.79%
Cc1cc(C2(c3cc(C)c(O)c(CN(CC(=O)O)CC(=O)O)c3)OS(=O)(=O)c3ccccc32)cc(CN(CC(=O)O)CC(=O)O)c1O,100 µg/mL,strand transfer,RF,30.9%
Cc1ccc(N(CCCCl)S(=O)(=O)c2ccc3[nH]cc(C(=O)O)c(=O)c3c2)cc1,1000 µM,strand transfer,,74.51%
NC(N)=NS(=O)(=O)c1ccc(Nc2c3ccccc3nc3c(C(=O)NC(CO)(CO)CO)cccc23)cc1,100 µg/mL,3′ processing,RF,42.2%
COc1c(O)cc2c(c1O)[C@@H]1O[C@H](CO)[C@@H](O)[C@H](O)[C@H]1OC2=O,100 µM,3′ processing,,0%
CC(C)(O)c1ccccc1CC[C@@H](SCC1(CC(=O)O)CC1)c1cccc(/C=C/c2ccc3ccc(Cl)cc3n2)c1,10 µM,AlphaScreen,,16.03%
CC(=O)O[C@H](C)[C@@H]1C2=C(C(=O)C[C@]1(C)O)C(=O)c1c(ccc(-c3ccc4c(c3O)C(=O)C3=C(C4=O)[C@@H]([C@@H](C)OC(C)=O)[C@@](C)(O)CC3=O)c1O)C2=O,100 µg/mL,strand transfer,RF,50%
O=C(O)c1c[nH]c2ccc(S(=O)(=O)N3CCN(c4cccc(Cl)c4)CC3)cc2c1=O,1000 µM,strand transfer,,76.59%

A second listing of 4 rows from above:

NC(N)=NS(=O)(=O)c1ccc(Nc2c3ccccc3nc3c(C(=O)NC(CO)(CO)CO)cccc23)cc1 ; dose: 100 µg/mL ; read by: 3′ processing ; strain or isolate: RF ; value: 42.2%
CCn1cc(C(=O)O)c(=O)c2cc(F)c(N3CCNCC3)nc21 ; dose: 10 µM ; read by: AlphaScreen ; value: 0%
NC(CCSSCCC(N)P(=O)(O)O)P(=O)(O)O ; dose: 100 µg/mL ; read by: strand transfer ; strain or isolate: RF ; value: 49.9%
CC(C(=O)O)c1cccc(Oc2ccccc2)c1 ; dose: 10 µM ; read by: AlphaScreen ; value: 2.61%